According to paper PMC9367177, “Engineering SARS-CoV-2 neutralizing antibodies for increased potency and reduced viral escape pathways” (2022):

Molecular target: eCC6.30.2 IgG
Experiment: SPR
Conditions: Fc-capture, multi-cycle; 1:1 Langmuir binding model; parent: est. 3.9e-11; read off a plot

## SARS-CoV-2 RBD (Wuhan-1), monomeric, His-Avitag L452R
  Kd: 2.8 nM
